Pooled drug test results. Numbers come from NIAID ChemDB, via PubChem.

Common to all: whole-cell or culture tests; species: Parainfluenza virus

ECn is the concentration giving n% inhibition of infection, replication or growth.

{"structure": "NS(=O)(=O)c1ncnc2c1ncn2[C@H]1C[C@H](O)[C@@H](CO)O1", "endpoint": "EC50", "method": "cytopathic effect", "strain or isolate": "TYPE 3", "result": ">320 µM"}
{"structure": "O=c1[nH]cnc2c1cnn2Cc1cn(CCCCO)nn1", "cells": "VERO", "endpoint": "EC50", "strain or isolate": "TYPE 3", "result": ">400 µg/mL"}
{"structure": "Cc1nc(CC(O)CO)c2nc[nH]c(=O)n12", "cells": "VERO", "endpoint": "EC50", "method": "cytopathic effect", "strain or isolate": "TYPE 3", "result": ">400 µg/mL"}
{"structure": "CSc1ncnc2c1cnn2Cc1cnnn1CCCCO", "cells": "VERO", "endpoint": "EC50", "strain or isolate": "TYPE 3", "result": ">400 µg/mL"}
{"structure": "NS(=O)c1ncnc2c1ncn2[C@H]1C[C@H](O)[C@@H](CO)O1", "endpoint": "EC50", "method": "cytopathic effect", "strain or isolate": "TYPE 3", "result": ">320 µM"}
{"structure": "COC(=O)[C@]1(C)CCC[C@]2(C)c3cc(Br)c4nc(C(F)(F)F)[nH]c4c3CCC12", "cells": "VERO", "endpoint": "EC50", "method": "plaque count", "strain or isolate": "TYPE 3", "result": ">4 µg/mL"}
{"structure": "Nc1[nH]c(=O)ncc1F", "cells": "VERO", "endpoint": "EC50", "method": "cytopathic effect", "strain or isolate": "C243 (TYPE 3)", "result": ">5000 µM"}
{"structure": "Nc1ncnc2c1ncn2[C@@H]1O[C@H](CO)[C@](O)(C(F)(F)F)[C@H]1O", "cells": "VERO", "endpoint": "EC50", "method": "cytopathic effect", "strain or isolate": "TYPE 3", "result": "300 µg/mL"}
{"structure": "CC=NC(=N)c1nc(-c2ccccc2)n(Cc2ccccc2)n1", "cells": "VERO", "endpoint": "EC50", "method": "cytopathic effect", "strain or isolate": "TYPE 3", "result": ">10 µg/mL"}
{"structure": "Nc1ncnc2c1ncn2[C@@H]1C[C@H](CO)[C@@H](O)[C@H]1O", "cells": "VERO", "endpoint": "EC50", "method": "cytopathic effect", "strain or isolate": "TYPE 1", "result": "2 µg/mL"}
{"structure": "CCn1nc(CC(=O)N/N=C/c2ccco2)nc1C", "endpoint": "MIC", "strain or isolate": "TYPE 3", "result": ">80 µg/mL"}
{"structure": "Nc1nc(=O)n([C@H]2C=C(F)[C@@H](CO)O2)cc1F", "cells": "VERO", "endpoint": "EC50", "method": "cytopathic effect", "strain or isolate": "C243 (TYPE 3)", "result": "130 µM"}
{"structure": "COC(=O)[C@]1(C)CCC[C@]2(C)c3ccc4[nH]c(C(F)(F)F)nc4c3CCC12", "cells": "VERO", "endpoint": "EC50", "method": "plaque count", "strain or isolate": "TYPE 3", "result": ">4 µg/mL"}
{"structure": "NS(=O)c1ncnc2c1ncn2[C@@H]1O[C@H](CO)[C@@H](O)[C@@H]1O", "endpoint": "EC50", "method": "cytopathic effect", "strain or isolate": "TYPE 3", "result": ">320 µM"}
{"structure": "CC=NC(=N)c1nc(-c2cccc(OC)c2)n(COCCO)n1", "cells": "VERO", "endpoint": "EC50", "method": "cytopathic effect", "strain or isolate": "TYPE 3", "result": ">100 µg/mL"}
{"structure": "CC(=O)Nc1nc2c(CC(O)CO)nc(C)n2c(=O)[nH]1", "cells": "VERO", "endpoint": "EC50", "method": "cytopathic effect", "strain or isolate": "TYPE 3", "result": ">200 µg/mL"}
{"structure": "O=c1ccn([C@@H]2O[C@H](CO)[C@](O)(C(F)(F)F)[C@H]2O)c(=O)[nH]1", "cells": "VERO", "endpoint": "EC50", "method": "cytopathic effect", "strain or isolate": "TYPE 3", "result": ">400 µg/mL"}
{"structure": "Nc1ncnc2c1ncn2C[C@H](O)CO", "endpoint": "MIC", "strain or isolate": "TYPE 3", "result": "240 µg/mL"}
{"structure": "Nc1ncnc2c1ncn2C1CC(COP(=O)(O)O)[C@@H](O)[C@H]1O", "cells": "VERO", "endpoint": "EC50", "method": "cytopathic effect", "strain or isolate": "TYPE 1", "result": "2 µg/mL"}
{"structure": "Nc1nc2c(ccn2[C@@H]2C[C@H](CO)[C@H](O)[C@@H]2O)c(=O)[nH]1", "endpoint": "MIC", "result": ">100 µg/mL"}
{"structure": "O=C(NCCc1ccccc1)C1=Cc2ccncc2CC1", "cells": "MA-104", "endpoint": "EC50", "method": "cytopathic effect", "strain or isolate": "14702 (TYPE 3)", "result": ">344 µM"}
{"structure": "Nc1ncnc2c1cnn2Cc1cn(CCCCO)nn1", "cells": "VERO", "endpoint": "EC50", "strain or isolate": "TYPE 3", "result": ">400 µg/mL"}
{"structure": "CCn1nc(CC(=O)NN=C(C)C)nc1C", "endpoint": "MIC", "strain or isolate": "TYPE 3", "result": ">80 µg/mL"}
{"structure": "CC=NC(=N)c1nc(-c2cccc(OC)c2)n(C/C=C/c2ccccc2)n1", "cells": "VERO", "endpoint": "EC50", "method": "cytopathic effect", "strain or isolate": "TYPE 3", "result": ">40 µg/mL"}
{"structure": "CON=C1C[C@H](n2cc(C)c(=O)[nH]c2=O)O[C@@H]1CO", "cells": "VERO", "endpoint": "EC50", "method": "cytopathic effect", "result": ">200 µg/mL"}
{"structure": "CC=NC(=N)c1nc(-c2cccc(OC)c2)n(Cc2ccccc2)n1", "cells": "VERO", "endpoint": "EC50", "method": "cytopathic effect", "strain or isolate": "TYPE 3", "result": ">10 µg/mL"}
{"structure": "COC(=O)[C@]1(C)CCC[C@]2(C)c3cc(Br)c4[nH]ccc4c3CCC12", "cells": "VERO", "endpoint": "EC50", "method": "plaque count", "strain or isolate": "TYPE 3", "result": ">4 µg/mL"}
{"structure": "S=c1[nH]nc(Cc2nc3n(n2)CCCCC3)o1", "endpoint": "MIC", "strain or isolate": "TYPE 3", "result": ">80 µg/mL"}
{"structure": "Cc1nc(C(C)C)c2[nH]c(=S)[nH]c(=O)n12", "cells": "VERO", "endpoint": "EC50", "method": "cytopathic effect", "strain or isolate": "TYPE 3", "result": ">200 µg/mL"}
{"structure": "COC(=O)[C@]1(C)CCC[C@]2(C)c3cc4cc[nH]c4cc3CCC12", "cells": "VERO", "endpoint": "EC50", "method": "plaque count", "strain or isolate": "TYPE 3", "result": ">4 µg/mL"}

A second listing of 2 rows from above:

structure	cells	endpoint	method	strain or isolate	result
NS(=O)c1ncnc2c1ncn2[C@@H]1O[C@H](CO)[C@@H](O)[C@@H]1O		EC50	cytopathic effect	TYPE 3	>320 µM
CCn1nc(CC(=O)NN=C(C)C)nc1C		MIC		TYPE 3	>80 µg/mL

Blank or dashed fields: not listed here. Rows are shuffled and stem from different studies.